PubChem BioAssay AID624099, ICCB-Longwood | 2012
Shown is one part, drawn at random, of about 21,000 reagents. In the full data, 497 (2.4%) were called active. 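Higher z means weaker E2 silencing; only reporter increases were scored, and knock-downs that hurt cell survival may mask genuine repressor factors.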 Entries without a mark were called inactive. No sequences are given here.

- Purpose: 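Knock-downs relieving repression by E2 of an HPV18 LCR luciferase reporter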 (primary screen)
- Cell system: human C33A cervical carcinoma cells (HPV-negative) stably expressing BPV1 E2 and an HPV18 LCR luciferase reporter
- Reagents: siRNA pool against human genes, 40 nM
- Duration: 72 h
- Read-out: 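Per-well luciferase luminescence, z-scored on each plate against the plate mean and SD with control wells left out, then averaged across three replicate plates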
- Direction: mean z-score and z-score: higher = stronger reporter signal, weaker E2 silencing
- Call rule: 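Hit if mean z-score reaches 2 and two or more of three replicate z-scores also reach 2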

no.	gene symbol	PubChem SID	mean z-score	z-score, replicate A	z-score, replicate B	z-score, replicate C
1	ZFP36 (ZFP36 zinc finger CCCH-type)	SID134315252	0.05	-0.01	0.13	0.02
2	SAMTOR (S-adenosylmethionine sensor upstream of mTORC1)	SID134320958	0.29	0.17	0.51	0.2
3	ANKRD12 (ankyrin repeat domain 12)	SID134318249	-0.13	-0.34	0.02	-0.08
4	AFF1 (ALF transcription elongation factor 1)	SID134323815	1.24	1.19	1.18	1.36
5	TIA1 (TIA1 cytotoxic granule associated RNA binding protein)	SID134317282	0.72	0.71	0.96	0.49
6	ANGPT4 (angiopoietin 4)	SID56479200	-1.67	-1.52	-1.91	-1.58
7	LOC388959 (retired record)	SID134327182	0.09	-0.08	0.06	0.28
8	NDUFS5 (NADH:ubiquinone oxidoreductase subunit S5)	SID134323579	-0.36	-0.07	-0.36	-0.66
9	RPS13 (ribosomal protein S13)	SID134315508	-1.76	-1.84	-1.73	-1.72
10	NR1I3 (nuclear receptor subfamily 1 group I member 3)	SID134309867	-0.29	-0.38	-0.23	-0.26
11	PSME2 (proteasome activator subunit 2)	SID134315714	-0.57	-0.77	-0.52	-0.42
12	LOC338749 (retired record)	SID134326644	-1.27	-1.5	-1.05	-1.27
13	CDH8 (cadherin 8)	SID134317745	-0.07	-0.58	0.06	0.31
14	CASP10 (caspase 10)	SID134310439	0.29	0.14	0.58	0.15
15	SRSF4 (serine and arginine rich splicing factor 4)	SID134310772	0.26	0.22	0.26	0.29
16	TSC22D4 (TSC22 domain family member 4)	SID134311814	0.33	0.37	0.09	0.53
17	OR10J1 (olfactory receptor family 10 subfamily J member 1)	SID134313745	-0.8	-1.02	-0.7	-0.67
18	ITGB8 (integrin subunit beta 8)	SID134312947	-0.28	-0.3	-0.22	-0.32
19	WASF1 (WASP family member 1)	SID134315885	0.17	-0.26	0.74	0.03
20	MYOZ3 (myozenin 3)	SID134322086	0.64	0.8	0.4	0.72
21	LOC387781 (retired record)	SID134328260	0.75	0.56	0.86	0.83
22	TREX1 (three prime repair exonuclease 1)	SID134317470	1.03	1.2	0.94	0.96

Laid out differently: 2 of the entries above.
| gene symbol | PubChem SID | mean z-score | z-score, replicate A | z-score, replicate B | z-score, replicate C |
| --- | --- | --- | --- | --- | --- |
| OR10J1 (olfactory receptor family 10 subfamily J member 1) | SID134313745 | -0.8 | -1.02 | -0.7 | -0.67 |
| ITGB8 (integrin subunit beta 8) | SID134312947 | -0.28 | -0.3 | -0.22 | -0.32 |

The list goes on:
no.	gene symbol	PubChem SID	mean z-score	z-score, replicate A	z-score, replicate B	z-score, replicate C
23	PHAF1 (phagophore assembly factor 1)	SID134320611	-0.53	-0.85	-0.18	-0.55
24	ACTR3 (actin related protein 3)	SID134316374	-0.18	-0.38	-0.07	-0.1
25	LINC02389 (long independently transcribed non-coding RNA 2389)	SID134328366	0.21	0.53	0.02	0.08
26	SPP2 (secreted phosphoprotein 2)	SID134323490	0.07	0.18	0.25	-0.23
27	SMPD4BP (sphingomyelin phosphodiesterase 4B, pseudogene)	SID134327221	0.81	0.75	0.52	1.16
28	PPP4C (protein phosphatase 4 catalytic subunit)	SID56479215	-0.55	-0.98	-0.6	-0.08
29	PRDM1 (PR/SET domain 1)	SID134314080	0.62	0.76	0.5	0.6
30	MRM2 (mitochondrial rRNA methyltransferase 2)	SID134317844	2.63 (active)	1.61	2.42	3.86
31	PAIP1 (poly(A) binding protein interacting protein 1)	SID134322990	-0.44	-0.47	-0.5	-0.35
32	MBD6 (methyl-CpG binding domain protein 6)	SID134319208	0.2	0.17	0.12	0.31
33	KCND3 (potassium voltage-gated channel subfamily D member 3)	SID134311644	-0.23	-0.16	-0.06	-0.45
34	TNKS (tankyrase)	SID134310604	-0.08	-0.1	-0.08	-0.06
35	TPSD1 (tryptase delta 1)	SID134311478	-0.26	-0.38	-0.26	-0.14
36	FBXO43 (F-box protein 43)	SID134326404	0.23	0.55	-0.12	0.25
37	BARHL2 (BarH like homeobox 2)	SID134329482	-0.64	-0.57	-0.74	-0.61
38	LCMT1 (leucine carboxyl methyltransferase 1)	SID134314172	0.08	0.16	0.18	-0.1
39	CNTNAP3 (contactin associated protein family member 3)	SID134315323	1.13	1.34	1.32	0.72
